Results of unrelated studies side by side (data: NIAID ChemDB).

Shared fields: cytotoxicity tests; read-out: CC50

CCn is the concentration with n% toxicity to the cells. An empty or dashed field is not shown. Lines come from different laboratories, so protocols vary.

| SMILES | cells | method | value |
|---|---|---|---|
| CC1(C)CC[C@]2(C(=O)O)CC[C@]3(C)C(=CC[C@@H]4[C@@]5(C)CC[C@H](O)C(C)(C)[C@@H]5CC[C@]43C)[C@@H]2C1 | HepG2-5B | MTT | >100 µg/mL |
| NC(=O)c1nn(Cc2cccc(NC(=O)c3cccnc3)c2)c2ccccc12 | Huh7.5.1 | MTT | >10 µM |
| COc1ccc(Cc2nccc3cc(OC)c(OC)cc23)cc1OC | MOLT-4 | - | 4 µg/mL |
| Cc1cn([C@H]2C=C[C@@H](CO)O2)c(=O)[nH]c1=O | C3H | - | >200 µM |
| Nc1cc(SCCOCP(=O)(O)O)nc(N)n1 | L1210 | - | <10 µM |
| CN1[C@H](CO)[C@@H](O)[C@H](O)[C@H]1CO | Karpas 45 cells | - | >100 µg/mL |
| NC(=O)c1nn(Cc2cccc(NC(=O)Cc3ccccc3)c2)c2ccccc12 | Huh7.5.1 | MTT | >10 µM |
| C[C@H](CCC(=O)NCCS(=O)(=O)O)[C@H]1CC[C@H]2[C@@H]3CC[C@@H]4C[C@H](O)CC[C@]4(C)C3CC[C@]12C | MOLT-4 | - | >500 µg/mL |
| O[C@@H]1[C@@H](O)[C@@H](O)CN2CC[C@H](O)[C@@H]12 | Karpas 45 cells | - | >500 µg/mL |
| C(=C\c1ccccc1)/CN1CCN(C(c2ccccc2)c2ccccc2)CC1 | n4mBid | luminescence | >30 µM |
| Nc1nc2c(ncn2/C=C2/CC2(CO)CO)c(=O)[nH]1 | HeLaP4 | - | 0.068 µM |
| O=C1C(=O)N(CN2CCN(c3ccnc4cc(Cl)ccc34)CC2)c2cccc(Br)c21 | Human foreskin fibroblasts | MTT / absorbance | 9.97 µM |
| C[C@H](Cn1cnc2c(N)ncnc21)OCP(=O)(O)O | RPTECs (clinical isolate 2) | ATP | >2000 µM |
| CC(C)OC(=O)[C@H](C)N[P@](=O)(CO[C@H](C)Cn1cnc2c(N)ncnc21)Oc1ccccc1 | HepG2 2.2.15 | MTT | 37 µM |
| Cc1cccc2c1OP(=O)(OC[C@H]1O[C@@H](n3cc(/C=C/Br)c(=O)[nH]c3=O)C[C@@H]1OC(=O)[C@H](C)N)OC2 | HELF | - | >128 µg/mL |
| CC(C)C1CCC2[C@]1(C)CCC1[C@]23C=C[C@]2(C[C@@H](O)CC[C@]12C)OO3 | Hs27 | ATP / luminescence | 100 µM |
| O=C1C(=O)N(CN2CCN(c3ccnc4cc(C(F)(F)F)ccc34)CC2)c2cccc(Cl)c21 | Human foreskin fibroblasts | MTT / absorbance | 7.95 µM |
| COC(=O)[C@@H]1c2cc3c(c(O)c2[C@@H](OC2OC(C)C(OC)C(C)(OC)C2OC)C[C@]1(C)O)C(=O)c1c(O)cc2c(c1C3=O)O[C@H]1O[C@]2(C)[C@H](O)[C@@H](N(C)C)[C@@H]1O | HeLa | - | <10 µg/mL |
| CC(C)[C@H](C(=O)NC(=S)NC(=O)NC(C)(C)C)c1ccc(Cl)cc1 | MDCK | MTS | >300 µM |
| Cc1nc(N2CCC[N+]3(CC2)CC[N+]2(CCCN(c4nc(C)nc5c4no[n+]5[O-])CC2)CC3)c2c(no[n+]2[O-])n1 | GMK | - | >291.4 µg/mL |
| CCOc1cc(OCC)nc(NC(=S)NC(=O)[C@H](c2ccc(Cl)cc2)C(C)C)n1 | MDCK | MTS | >300 µM |
| CC(C)[C@@H](C)/C=C/[C@@H](C)[C@H]1CC[C@H]2C3=CC=C4C[C@@H](O)CC[C@]4(C)[C@H]3CC[C@]12C | HeLa | - | >200 µg/mL |
| O=C(Nc1ccsc1)NC1N=C(c2ccccc2)c2ccccc2NC1=O | HEP-2 | - | 4.8 µM |
| Cc1cccc2c1OP(=O)(OC[C@H]1O[C@@H](n3cc(/C=C/Br)c(=O)[nH]c3=O)C[C@@H]1OC(=O)[C@H](N)CC(C)C)OC2 | HELF | - | >128 µg/mL |
| Nc1cc(=O)n(CCOCP(=O)(O)O)cn1 | CCRF-CEM | - | <10 µM |
| CN(C)CCC=C1c2ccccc2CCc2ccccc21 | n4mBid | luminescence | 30 µM |
| COc1cc(OC)n2sc(=NC(=O)c3cccnc3)nc2n1 | MDCK | MTS | >300 µM |
| COc1nc(N)nc2c1ncn2C=C1CC1CO | H-1 | - | >50 µM |
| O=[N+]([O-])c1cccc2ncccc12 | Human foreskin fibroblasts | MTT / absorbance | 11.3 µM |
| CCC[C@H](NC(=O)[C@@H]1[C@H]2CCC[C@H]2CN1C(=O)[C@@H](NC(=O)[C@@H](NC(=O)c1cnccn1)C1CCCCC1)C(C)(C)C)C(=O)C(=O)NC1CC1 | n4mBid | luminescence | 30 µM |
| CC(=O)N[C@H]1CN[C@H](CO)[C@@H](O)[C@@H]1O | Karpas 45 cells | - | >190 µg/mL |
| O=C1O[C@H]([C@@H](O)CO)C(O)=C1O | H9(HIV-1(IIIB)) | - | >852 µM |
| NC(=S)N=Nc1c(O)n(CN2CCN(c3ccnc4cc(C(F)(F)F)ccc34)CC2)c2cc(Br)ccc12 | Human foreskin fibroblasts | MTT / absorbance | 3.15 µM |
| Cc1cc(C)nc(NC(=S)NC(=O)c2ccccc2)n1 | MDCK | MTS | >300 µM |
| Nc1ncnc2c([C@@H]3O[C@H](CO)[C@@H](O)[C@H]3O)[nH]nc12 | HeLa | - | 54 µM |
| NC(=O)c1nn(Cc2cccc(NC(=O)c3ccccc3[N+](=O)[O-])c2)c2ccccc12 | Huh7.5.1 | MTT | >10 µM |
| NC(=O)c1ncn([C@@H]2O[C@H](CO)[C@@H](O)[C@H]2O)n1 | Huh7.5.1 | MTT | 47.4 µg/mL |
| Cc1cc(N2CC[N+](C)(C)CC2)c([N+](=O)[O-])c(N2CC[N+](C)(C)CC2)c1 | K562 | - | >322.9 µg/mL |
| Nc1ccn([C@H]2CC[C@@H](CO)O2)c(=O)n1 | MOLT-4 | - | 0.1 µg/mL |
| Nc1ccn(C[C@@H](CO)OCP(=O)(O)O)c(=O)n1 | CHO (hOAT1) | - | 3 µM |
| CC(C)(C)NC(=O)NC(=S)NC(=O)c1ccc(-c2ccc([N+](=O)[O-])cc2)o1 | MDCK | MTS | >300 µM |
| COc1ccc(Cl)c(C)c1C(=O)OC1CC(OC2C(O)CC(O[C@H]3CCC[C@@H]4[C@@H]3C=C[C@H]3CCCC/C=C/[C@@H]5C=C(C(=O)O)[C@H](C)C[C@]56OC(=O)C(=C6O)OC(=O)[C@@]43C)OC2C)OC(C)C1O | HeLa | - | 100 µg/mL |
| CCCCN1C[C@H](O)[C@@H](O)[C@H](O)[C@H]1CO | MOLT-4 | - | >500 µg/mL |
| CC(C)(C)NC(=O)NC(=O)NC(=O)c1ccccc1 | MDCK | MTS | >300 µM |
| Nc1ncnc2c1ncn2[C@@H]1O[C@H](OCP(=O)(O)O)C=C1F | RPTECs (clinical isolate 1) | ATP | >2000 µM |
| Nc1cc(OCCOCP(=O)(O)O)nc(N)n1 | L1210 | - | <10 µM |
| NC(=O)c1nn(Cc2cccc(NC(=O)c3cccc(F)c3)c2)c2ccccc12 | Huh7.5.1 | MTT | >10 µM |
| O=C(O)[C@H]1NC[C@@H](O)[C@@H](O)[C@@H]1O | Karpas 45 cells | - | >160 µg/mL |
| Cc1ccccc1C(=O)Nc1cccc(Cn2nc(C(N)=O)c3ccccc32)c1 | Huh7.5.1 | MTT | >10 µM |
| C=C1O[C@@](CO)(n2cnc3c(N)ncnc32)[C@H](O)[C@@H]1O | HeLa | - | >100 µg/mL |
| O=C(Nc1ccc(Br)cc1C(F)(F)F)NC1N=C(c2ccccc2)c2ccccc2NC1=O | HEP-2 | - | 6 µM |
| O=c1c2ccccc2[se]n1-c1ccccc1 | n4mBid | luminescence | >30 µM |
| O[C@@H]1[C@@H](O)[C@@H](O)CN2CC[C@@H](O)[C@@H]12 | Karpas 45 cells | - | >500 µg/mL |
| Cc1ccc2c(c1)nc(-c1ccc(N(C)C)cc1)n2CCc1ccccc1 | Macrophage | MTT | >100 µM |
| Cc1cccc2c1OP(=O)(OC[C@H]1O[C@@H](n3cc(/C=C/Br)c(=O)[nH]c3=O)C[C@@H]1OC(=O)C(C)C)OC2 | HELF | - | 73.7 µg/mL |
| CSc1nc(Cl)c([N+](=O)[O-])c(N2CC[N+]3(CC2)CC[N+]2(CCN(c4nc(SC)nc(Cl)c4[N+](=O)[O-])CC2)CC3)n1 | GMK | - | >659.2 µg/mL |
| COC(=O)[C@H](C)NP(=O)(OC[C@H]1C/C1=C/n1cnc2c(OC)nc(N)nc21)Oc1ccccc1 | H-1 | - | 4.6 µM |
| OC[C@@H](O)[C@H]1NC[C@@H](O)[C@H]1O | Karpas 45 cells | - | >300 µg/mL |
| Nc1nc(NC2CC2)c2ncn(C=C3CC3CO)c2n1 | MEF | - | 220 µM |
| CN1[C@@H]2CC[C@H]1CC(OC(c1ccccc1)c1ccccc1)C2 | n4mBid | luminescence | 40 µM |
| CCCCCCCCCCCCCCCC(=O)OCC(O)CO | HeLa | - | 150 µg/mL |
| COc1ccc(Br)c(C(=O)NC2N=C(c3ccccc3)c3ccccc3NC2=O)c1 | HEP-2 | - | 2 µM |
| Cc1nc(N2CC[N+]3(CC2)CC[N+]2(CCN(c4nc(C)nc5c4no[n+]5[O-])CC2)CC3)c2c(no[n+]2[O-])n1 | L929 | - | >334.8 µg/mL |
| O=c1[nH]c(=O)n([C@H]2C[C@H](O)[C@@H](COP3(=O)OCc4cc(Cl)ccc4O3)O2)cc1/C=C/Br | HELF | - | >128 µg/mL |
| CCOc1cc(C)nc2nc(=NC(=O)c3ccc(-c4ccccc4Cl)o3)sn12 | MDCK | MTS | >300 µM |
| COc1ccc2c(c1)COP(=O)(OC[C@H]1O[C@@H](n3cc(/C=C/Br)c(=O)[nH]c3=O)C[C@@H]1O)O2 | HELF | - | >128 µg/mL |
| O=C(N[C@H]1N=C(c2ccccc2)c2ccccc2NC1=O)c1ccccc1O | HEP-2 | - | 2 µM |
| NC(=S)N=Nc1c(O)n(CN2CCN(c3ccnc4cc(Cl)ccc34)CC2)c2cccc(Br)c12 | Human foreskin fibroblasts | MTT / absorbance | 8 µM |
| O=[N+]([O-])c1c(Cl)ncnc1NN1CC[N+]2(CC1)CC[N+]1(CCN(Nc3ncnc(Cl)c3[N+](=O)[O-])CC1)CC2 | GMK | - | 715.1 µg/mL |
| C[C@@H](COc1cc(N)nc(N)n1)OCP(=O)(O)O | CCRF-CEM | - | <10 µM |
| O=C(NC1CCCCC1)NC1N=C(c2ccccc2)c2ccccc2NC1=O | HEP-2 | - | 1.5 µM |
| NC(=O)c1nn(Cc2cccc(N)c2)c2ccccc12 | Huh7.5.1 | MTT | >10 µM |
| CC(C)OC(=O)[C@H](C)N[P@](=O)(CO[C@H](C)Cn1cnc2c(N)ncnc21)Oc1ccccc1 | RPTECs (clinical isolate 1) | ATP | 22 µM |
| O=C1N[C@H]([C@@H](O)CO)[C@H](O)[C@@H]1O | Karpas 45 cells | - | >300 µg/mL |
| Cc1cc(=O)[nH]c(NC(=S)NC(=O)c2ccc(-c3ccc([N+](=O)[O-])cc3)o2)n1 | MDCK | MTS | >300 µM |
| Cc1nc(Cl)c([N+](=O)[O-])c(N2CC[N+](C)(C)CC2)n1 | L929 | - | >483.6 µg/mL |
| Cc1cc(OCCOCP(=O)(O)O)nc(N)n1 | L1210 | - | <10 µM |
| CN1[C@@H]2CC[C@H]1CC(OC(=O)C(CO)c1ccccc1)C2 | HeLa | - | >1.3 µM |
| COC(=O)[C@H](C)NP(=O)(OCC1C/C1=C\n1cnc2c(N)ncnc21)Oc1ccccc1 | 2.2.15 | - | 4.5 µM |

The last 11 rows once more:

| SMILES | cells | method | value |
|---|---|---|---|
| O=[N+]([O-])c1c(Cl)ncnc1NN1CC[N+]2(CC1)CC[N+]1(CCN(Nc3ncnc(Cl)c3[N+](=O)[O-])CC1)CC2 | GMK | - | 715.1 µg/mL |
| C[C@@H](COc1cc(N)nc(N)n1)OCP(=O)(O)O | CCRF-CEM | - | <10 µM |
| O=C(NC1CCCCC1)NC1N=C(c2ccccc2)c2ccccc2NC1=O | HEP-2 | - | 1.5 µM |
| NC(=O)c1nn(Cc2cccc(N)c2)c2ccccc12 | Huh7.5.1 | MTT | >10 µM |
| CC(C)OC(=O)[C@H](C)N[P@](=O)(CO[C@H](C)Cn1cnc2c(N)ncnc21)Oc1ccccc1 | RPTECs (clinical isolate 1) | ATP | 22 µM |
| O=C1N[C@H]([C@@H](O)CO)[C@H](O)[C@@H]1O | Karpas 45 cells | - | >300 µg/mL |
| Cc1cc(=O)[nH]c(NC(=S)NC(=O)c2ccc(-c3ccc([N+](=O)[O-])cc3)o2)n1 | MDCK | MTS | >300 µM |
| Cc1nc(Cl)c([N+](=O)[O-])c(N2CC[N+](C)(C)CC2)n1 | L929 | - | >483.6 µg/mL |
| Cc1cc(OCCOCP(=O)(O)O)nc(N)n1 | L1210 | - | <10 µM |
| CN1[C@@H]2CC[C@H]1CC(OC(=O)C(CO)c1ccccc1)C2 | HeLa | - | >1.3 µM |
| COC(=O)[C@H](C)NP(=O)(OCC1C/C1=C\n1cnc2c(N)ncnc21)Oc1ccccc1 | 2.2.15 | - | 4.5 µM |